The values below come from patent publication US5885833.

For at least one entry, the source does not settle the construct or the ends of the probe.

The data set concerns E2F1-DP1-pRb complex (pRb aa 300-928). In words: EMSA. As to conditions: similar affinity to B-myb site; purified recombinant protein; protein details: GST fusion, E. coli; label: 32P. (In general: In EMSA bound probe runs differently from free probe, usually more slowly.)

In the case of “GATCGACTAGTTTCGCGCCCTTTCTACTAG (double strand) [E2a adenovirus promoter probe]”, the binding result was “binds”.
